Results of unrelated studies side by side (data: NIAID ChemDB).

Common to all: tests in culture; species: HIV-1; method: p24; read-out: EC50

Blank or dashed fields: not listed here. Conditions beyond the fields shown may differ between rows. a–b is a range or a potency band. ECn: concentration that inhibits the pathogen or its effect by n%.

compound	cells	strain	changes	value
CC(=O)Nc1nc(C)c(S(=O)(=O)N(CC(C)C)C[C@@H](O)[C@H](Cc2ccccc2)NC(=O)[C@H](CC(N)=O)NC(=O)c2ccc3ccccc3n2)s1	CEM	IIIB	-	<1 µM
CCCCCCCC/C=C\CCCCC(CCC(=O)O)NC1c2ccc3cc4c5c6c(cc7ccc8cc9cc1c1c9c9c8c7c6c9c6c1c2c3c56)C4	MT-4	-	-	10 µM
Cc1cn([C@H]2C=C[C@@H](CO)O2)c(=O)[nH]c1=O	MT-4	XM-T69SSS	RT-T69SSS L210W T215Y	<2.7 µM
CCN1c2ncc(CCOc3ccc(-c4ccc(CC(=O)O)cc4O)cc3C)cc2C(=O)N(C)c2cccnc21	C8166	-	RT-K103N Y181C	>0.05 µM
Cc1cccc(S(=O)(=O)c2c(C(=O)NCCO)[nH]c3ccc(Cl)cc23)c1	Macrophage + Macrophages	BAL R5	-	0.08 µM
CCCCCCCCCCCCCCCCOCCCOP(=O)(O)CO[C@H](CO)Cn1cnc2c(N)ncnc21	MT-2	LAI WT	-	0.007 µM
CC(=O)Nc1ccc(S(=O)(=O)N(CC(C)C)C[C@@H](O)[C@H](Cc2ccccc2)NC(=O)OCc2cccnc2)cc1	CEM	IIIB	-	<1 µM
C=CCOC(=O)N[C@@H](Cc1ccccc1)[C@H](O)CN(CC1CCCC1)S(=O)(=O)c1ccc(NC(C)=O)cc1	CEM	IIIB	-	<0.101 µM
O=C1NCCN(Cc2ccccc2)c2c1sc1ccc([N+](=O)[O-])cc21	OM-10.1	-	-	0.04 µM
CCN1c2ncc(CCOc3ccc4cc(C(=O)NN)ccc4c3)cc2C(=O)N(C)c2cccnc21	C8166	WT	-	<0.1 µM
CC(c1ccccn1)n1c(=O)c(O)c2n(c1=O)CCN(Cc1ccc(F)cc1)C2=O	MT-4	-	-	<10 µM
C=C1CN(S(=O)(=O)c2ccc(C)cc2)CCCN(CC2CC=CCC2)CCCN(S(=O)(=O)c2ccc(C)cc2)C1	PBMC	BaL	-	0.99 µM
Cc1cc(C)cc(Sc2c(C(=O)NNCCO)[nH]c3ccc(Cl)cc23)c1	Macrophage + Macrophages	BAL R5	-	0.1 µM
Cn1cc(C(=O)O)c(=O)c2cc(F)c(N3CC=C(c4ccccc4)CC3)c(C(F)(F)F)c21	OM-10.1	-	-	0.04 µM
O=C(NNCCO)c1[nH]c2ccc(Cl)cc2c1S(=O)(=O)c1ccccc1	Macrophage + Macrophages	BAL R5	-	0.9 µM
CCOc1ccc2sc3c(c2c1)N(CCO)CCNC3=O	OM-10.1	-	-	0.5 µM
NC(=O)n1c(O)c(C(=O)c2cccs2)c2cc(Cl)ccc21	H9	MN	-	15 µM
CC(=O)Nc1cc(S(=O)(=O)N(CC(C)C)C[C@@H](O)[C@H](Cc2ccccc2)NC(=O)[C@H](CC(N)=O)NC(=O)c2ccc3ccccc3n2)ccc1F	CEM	IIIB	-	<0.101 µM
Cc1cc(C)cc(Sc2c(C(=O)NCCO)[nH]c3ccc(Cl)cc23)c1	Macrophage + Macrophages	BAL R5	-	0.8 µM
CCN1c2ncc(CCOc3ccc4cc(CC(=O)O)ccc4c3C)cc2C(=O)N(C)c2cccnc21	C8166	-	RT-V106A	0.1–1 µM
CCN1c2ncc(CCOc3ccc(-c4ccc(C(O)C(=O)O)cc4)cc3C)cc2C(=O)N(C)c2cccnc21	C8166	IIIB	-	0.01–0.05 µM
CC(=O)Nc1cccc(S(=O)(=O)N(CC(C)C)C[C@@H](O)[C@H](Cc2ccccc2)NC(=O)[C@H](CC(N)=O)NC(=O)c2ccc3ccccc3n2)c1	CEM	IIIB	-	<0.101 µM
CCN1c2ncc(CCOc3ccc(C4CC4C(=O)O)c4ccccc34)cc2C(=O)N(C)c2ccc(F)nc21	C8166	-	RT-K103N Y181C	0.1–1 µM
CC(=O)Nc1nc(C)c(S(=O)(=O)N(Cc2ccccc2)C[C@@H](O)[C@H](Cc2ccccc2)NC(=O)[C@H](CC(N)=O)NC(=O)c2ccc3ccccc3n2)s1	CEM	IIIB	-	<0.101 µM
CC(C)CN(C[C@@H](O)[C@H](Cc1ccccc1)NC(=O)OC(C)(C)C)S(=O)(=O)c1ccc2nonc2c1	CEM	IIIB	-	<10 µM
N[C@@H](CCCCNC1c2ccc3cc4c5c6c(cc7ccc8cc9cc1c1c9c9c8c7c6c9c6c1c2c3c56)C4)C(=O)O	MT-4	-	-	90 µM
Cc1cc(S(=O)(=O)Nc2nnc3c4ccccc4cnn23)c(S)cc1Cl	CEM	6R (AZT-resistant)	-	53.9 µM
CC(=O)Nc1ccc(S(=O)(=O)N(CC(C)C)C[C@@H](O)[C@H](Cc2ccccc2)NC(=O)O[C@H]2CCOC2)cc1	CEM	IIIB	-	<1 µM
CNCCC1CN(Cc2ccc(F)cc2)C(=O)c2c(O)c(=O)n(C(C)C)c(=O)n21	MT-4	-	-	<10 µM
COC(=O)[C@H](C)NP(=O)(OC[C@@H]1C=C[C@H](n2cc(C)c(=O)[nH]c2=O)O1)Oc1ccc(OC)cc1	PBMC	RTMDR	RT M41L L74V T215Y V106N	1.014 µM
CC(=O)Nc1ccc(S(=O)(=O)N(CC2CCCC2)C[C@@H](O)[C@H](Cc2ccccc2)NC(=O)OCc2cccnc2)cc1	CEM	IIIB	-	<0.101 µM
CC(C)n1c(=O)c(O)c2n(c1=O)C(CCN(C)C(=O)c1ccccc1)CN(Cc1ccc(F)cc1)C2=O	MT-4	-	-	<10 µM
CC1(C)C2CC[C@@]3(C)C4CC[C@@]5(C)CC[C@](C)(C(=O)O)C[C@H]5C4=CC(=O)C3[C@@]2(C)CC[C@@H]1O[C@@H]1O[C@H](C(=O)O)[C@@H](O[C@@H]2O[C@H](C(=O)O)[C@@H](O)[C@H](O)[C@H]2O)[C@H](O)[C@H]1O	MT-4	EVK	-	125 µg/mL
Cc1ccc(S(=O)(=O)N(CC(C)C)C[C@@H](O)[C@H](Cc2ccccc2)NC(=O)O[C@@H]2CCOC2)cc1	CEM	IIIB	-	<1 µM
COc1ccc(-n2c(=O)c(O)c3n(c2=O)CCN(Cc2ccc(F)cc2)C3=O)cc1	MT-4	-	-	<10 µM
CCCCCCCCCCCCCCCCCCOCCOP(=O)(O)CO[C@H](CO)Cn1cnc2c(N)ncnc21	MT-2	-	RT-K65R	0.003 µM
C=CCN1CCNC(=O)c2oc3ccccc3c21	OM-10.1	-	-	2.1 µM
Cc1ccc(S(=O)(=O)c2c(C(=O)NNCCO)[nH]c3ccc(Cl)cc23)cc1	Macrophage + Macrophages	BAL R5	-	11 µM
COc1ccc2c(c1)C1=C(CC2)C(=O)NCCN1Cc1ccccc1Cl	OM-10.1	-	-	0.9 µM
CCN1c2ncc(CCOc3ccc(NC(=O)CC(C)(C)C(=O)O)cc3C)cc2C(=O)N(C)c2cccnc21	C8166	-	RT-K103N Y181C	0.01–0.05 µM
CC(C)n1c(=O)c(O)c2n(c1=O)C(CCN(C)Cc1ccccc1)CN(Cc1ccc(F)cc1)C2=O	MT-4	-	-	<10 µM
CC(C)CN(C[C@@H](O)[C@H](Cc1ccccc1)NC(=O)OCC1CCOC1)S(=O)(=O)c1ccc(F)cc1	CEM	IIIB	-	<0.101 µM
NC(=O)C[C@H](NC(=O)c1ccc2ccccc2n1)C(=O)N[C@@H](Cc1ccccc1)[C@H](O)CN(Cc1ccccc1)S(=O)(=O)c1ccc(-c2ccon2)s1	CEM	IIIB	-	<1 µM
COC(=O)[C@H](C)NP(=O)(OC[C@@H]1C=C[C@H](n2cc(C)c(=O)[nH]c2=O)O1)Oc1ccccc1Br	PBMC	IIIB WT	-	0.002 µM
C/C=C/CSc1cc(NC(=S)c2ccsc2C)ccc1Cl	CEM + CEM-SS	NL4-3	-	0.08 µM
CCN1c2ncc(CCOc3ccc(CCC(=O)O)c4c3CCCC4)cc2C(=O)N(C)c2ccc(Cl)nc21	C8166	-	RT-K103N Y181C	<0.1 µM
Cc1noc(C)c1S(=O)(=O)N(Cc1ccccc1)C[C@@H](O)[C@H](Cc1ccccc1)NC(=O)[C@H](CC(N)=O)NC(=O)c1ccc2ccccc2n1	CEM	IIIB	-	<10 µM
CC(=O)Nc1ccc(S(=O)(=O)N(CC(C)C)C[C@@H](O)[C@H](Cc2ccccc2)NC(=O)OCc2cccnc2)cc1	CEM	IIIB	-	<0.101 µM
CCn1cc(C(=O)O)c(=O)c2cc(F)c(N3CCN(c4ccccc4OC)CC3)c(OC(F)F)c21	PBMC	IIIB	-	0.085 µM
C=CCN1CCNC(=O)c2sc3ccc(OC)cc3c21	OM-10.1	-	-	<0.08 µM
CC(=O)N1CCC(C(=O)N(CCCN2CCC(Cc3ccc(C(N)=O)cc3)CC2)c2ccc(C)c(Cl)c2)CC1	PBMC	HNK Clinical isolates	-	0.0017 µM
CCN1c2ncc(CCOc3ccc(C(=O)O)c4ccccc34)cc2C(=O)N(C)c2ccc(F)nc21	C8166	WT	-	<0.1 µM
C=C(C)CN1CCNC(=O)c2sc3ccc(OC)cc3c21	OM-10.1	-	-	<0.08 µM
O=C(O)c1cc(-n2cccc2)ccc1Cl	MT-2	SF2 X4R5 CLADE B	-	4.75 µM
CC(C)CN(C[C@@H](O)[C@H](Cc1ccccc1)NC(=O)OCc1ccccc1)S(=O)(=O)c1ccc(N)c([N+](=O)[O-])c1	CEM	IIIB	-	<1.001 µM
CCN1c2ncc(CCOc3ccc(-c4ccc[n+]([O-])c4C)cc3C)cc2C(=O)N(C)c2cccnc21	C8166	IIIB	-	<0.01 µM
COC(=O)[C@H](C)NP(=O)(OC[C@@H]1C=C[C@H](n2cc(C)c(=O)[nH]c2=O)O1)Oc1cc(Cl)ccc1Cl	PBMC	RTMDR	RT M41L L74V T215Y V106N	0.022 µM
COc1ccc2c(c1)C1=C(C2)C(=O)N[C@H]2CCCC[C@@H]2N1	OM-10.1	-	-	0.2 µM
CS(=O)c1ccc(-c2nc(-c3ccc(F)cc3)c(-c3ccncc3)[nH]2)cc1	Mono Mac 6	BaL	-	>1 µM
Nc1nc(NC2CC2)c2ncn([C@H]3C=C[C@@H](CO)C3)c2n1	MT-4	XM-ABC-resistant	RT-K65R L74V M184V Y115F	<100 µM
COc1ccc2c(c1)C1=C(CC2)C(=O)NCCN1Cc1ccc([N+](=O)[O-])cc1	OM-10.1	-	-	1 µM
COc1ccc2c(c1)N(C(=O)OC(C)C)[C@@H](CSC)C(=S)N2	PBL	D34	-	0.001 µM
CCN1c2ncc(CCOc3ccc(C(=O)c4ccc(C(=O)O)cc4)cc3C)cc2C(=O)N(C)c2cccnc21	C8166	-	RT-K103N Y181C	0.01–0.05 µM
NC(=O)C[C@H](NC(=O)c1ccc2ccccc2n1)C(=O)N[C@@H](Cc1ccccc1)[C@H](O)CN(Cc1ccccc1)S(=O)(=O)c1cccc(C(=O)O)c1	CEM	IIIB	-	<40 µM
CCN1c2ncc(CCOc3ccc(/C=C(\C)C(=O)O)c4ccccc34)cc2C(=O)N(C)c2ccc(Cl)nc21	C8166	-	RT-K103N Y181C	<0.1 µM
CCN1c2ncc(CCOc3ccc(-c4cccc[n+]4[O-])cc3C)cc2C(=O)N(C)c2cccnc21	C8166	-	RT-K103N Y181C	<0.01 µM

6 of the rows above, restated:

compound | cells | strain | changes | value
O=C(NNCCO)c1[nH]c2ccc(Cl)cc2c1S(=O)(=O)c1ccccc1 | Macrophage + Macrophages | BAL R5 | - | 0.9 µM
Nc1nc(NC2CC2)c2ncn([C@H]3C=C[C@@H](CO)C3)c2n1 | MT-4 | XM-ABC-resistant | RT-K65R L74V M184V Y115F | <100 µM
CCN1c2ncc(CCOc3ccc(/C=C(\C)C(=O)O)c4ccccc34)cc2C(=O)N(C)c2ccc(Cl)nc21 | C8166 | - | RT-K103N Y181C | <0.1 µM
COc1ccc2c(c1)C1=C(C2)C(=O)N[C@H]2CCCC[C@@H]2N1 | OM-10.1 | - | - | 0.2 µM
CCN1c2ncc(CCOc3ccc4cc(C(=O)NN)ccc4c3)cc2C(=O)N(C)c2cccnc21 | C8166 | WT | - | <0.1 µM
COC(=O)[C@H](C)NP(=O)(OC[C@@H]1C=C[C@H](n2cc(C)c(=O)[nH]c2=O)O1)Oc1ccccc1Br | PBMC | IIIB WT | - | 0.002 µM